Screening data, single-dose tests

Data taken from ChEMBL document CHEMBL3988442, “University of Dundee, Small-Polar-MMV Screening Library” (2021).

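Growth of Mycobacterium tuberculosis over 3 days (7H9 medium with glucose and tyloxapol); the read-out is not stated. Compounds at 500 µM. Higher reads as more growth inhibition (inferred: compounds with an IC50 in retests scored well above the rest). Of about 18,000 compounds tested this way, about 1,400 (7.9%) reached 50% or more in at least one test.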

Each number is a percent effect as filed. How 0% and 100% were set is not recorded. Most values in the screen are low, and negative values occur. Many other results are left out here, so strong results are more common than in the screen.

SMILES: CCNC(=O)CNc1nnnn1-c1ccc(C)cc1
effect: -0.248%

SMILES: CCOc1cccc(CN(C)S(=O)(=O)c2cccs2)n1
effect: 77.93%

SMILES: NC1CCN(C(=O)c2ccccn2)C1 (stereo unspecified)
effect: -6.902%

SMILES: NCc1ccncc1OCC(F)(F)F
effect: 25.55%

SMILES: CCC=C(C)C(=O)NCC(=O)N1CCCC1
effect: 8.175%

SMILES: COc1ccc(CCN)c(OC)c1OC
effect: 88.92%

SMILES: Cn1cc(CNC(=O)c2ccco2)cn1
effect: 15.5%

SMILES: CC1CN(C)CCN1CC(=O)NCc1ccco1 (stereo unspecified)
effect: -2.235%

SMILES: Cc1occc1C(=O)NCC(C)CN1CCOCC1 (stereo unspecified)
effect: 9.787%

SMILES: CCN(C(=O)c1ccc(N)nc1)[C@H]1COC[C@@H]1O
effect: 2.425%

SMILES: c1ccc(OCC2CCNC2)cc1 (stereo unspecified)
effect: 28.97%

SMILES: FC(F)(F)COCCNCCn1cccn1
effect: -0.428%

SMILES: CS(=O)(=O)Nc1ccc2[nH]c(=O)oc2c1
effect: -4.986%

SMILES: COc1ccnc2c1CCCC2N (stereo unspecified)
effect: 26.51%

SMILES: COc1ccc2nc(NCC(O)CO)ccc2c1 (stereo unspecified)
effect: 0.5734%

SMILES: COCCNC(=O)CN(C)CC(=O)N1CCOCC1
effect: -9.607%

SMILES: Cc1cc(C(=O)N2CCCC2C(=O)NC2CC2)no1 (stereo unspecified)
effect: -5.256%

SMILES: CCNc1nnc(SCc2ncccc2C)s1
effect: 70.45%

SMILES: Cc1ccc(-c2nnc(SCC(=O)N(C)C)n2C)cc1
effect: 19.92%

SMILES: CCNC(C)c1cccnc1 (stereo unspecified)
effect: -4.182%

SMILES: Cc1cc(NC(=O)NC[C@@H]2C[C@H](F)CN2)n(C(C)C)n1
effect: 4.345%

SMILES: COC(=O)NCCc1ccccc1OC
effect: 61.37%

SMILES: Nc1nnc(SCc2ccno2)s1
effect: 6.598%

SMILES: CCOC(=O)C(C)(O)c1ccc(F)c(F)c1 (stereo unspecified)
effect: 4.179%

SMILES: O=C(CCCc1ccccc1)NCc1ccccn1
effect: 65.64%

SMILES: O=C(Cc1cccc(O)c1)N1CCCC1
effect: 17.91%

SMILES: COCCOCCCNC(=O)C(C)(C)n1cc(Br)cn1
effect: 16.27%

SMILES: O=C1CCC(C(=O)NCCc2ccc(F)cc2)N1 (stereo unspecified)
effect: 18.25%

SMILES: O=C(c1ccc(Br)s1)N1CCN(c2ccccn2)CC1
effect: -5.09%